The values that follow come from paper PMC9426601 (mBio, 2022).

For one assay, the system named is A(H3N2) 100% PA/I38T. The assay can be described thus: antiviral treatment of infected ferrets. Particulars: nasal washes 10 days, mean ± SD, tested form: phosphate.
Another assay has as its system A(H3N2) 100% WT. Nature of the assay: antiviral treatment of infected ferrets. Conditions: nasal washes 10 days, mean ± SD, tested form: phosphate.

Turning to `CCOC(=O)C1=C[C@@H](OC(CC)CC)[C@H](NC(C)=O)[C@@H](N)C1` [Oseltamivir, oseltamivir], the AUC (area under the curve of nasal wash viral titer) is 16.5 · in the assay on A(H3N2) 100% PA/I38T, 19.7 · in the assay with A(H3N2) 100% WT and 19.7 ± 2.7 in the assay on A(H3N2) 100% WT (listed as oseltamivir).
